Structures are written as SMILES.

1 compound from ChEMBL document CHEMBL3596191, “Inhibition studies of bacterial, fungal and protozoan β-class carbonic anhydrases with Schiff bases incorporating sulfonamide moieties” (Bioorg Med Chem, 2015) can be followed below.

A short description of test [1]: Selectivity ratio of Ki for human alpha-carbonic anhydrase 2 to Ki for Brucella suis beta-carbonic anhydrase 2.
The nature of test [2]: Selectivity ratio of Ki for human alpha-carbonic anhydrase 1 to Ki for Cryptococcus neoformans var. grubii beta-carbonic anhydrase.
The nature of test [3]: Selectivity ratio of Ki for human alpha-carbonic anhydrase 1 to Ki for Brucella suis beta-carbonic anhydrase 2.
Test [4] can be described thus: Selectivity ratio of Ki for human alpha-carbonic anhydrase 2 to Ki for Leishmania donovani chagasi beta-carbonic anhydrase.
Test [5] can be described thus: Selectivity ratio of Ki for human alpha-carbonic anhydrase 2 to Ki for Cryptococcus neoformans var. grubii beta-carbonic anhydrase.
Test [6] in a line: Selectivity ratio of Ki for human alpha-carbonic anhydrase 1 to Ki for Brucella suis beta-carbonic anhydrase 1.
Test [7] is described as follows: Selectivity ratio of Ki for human alpha-carbonic anhydrase 2 to Ki for Brucella suis beta-carbonic anhydrase 1.
Test [8] in a line: Selectivity ratio of Ki for human alpha-carbonic anhydrase 1 to Ki for Leishmania donovani chagasi beta-carbonic anhydrase.

Turning to `CC(=O)Nc1nnc(S(N)(=O)=O)s1`, the Ratio Ki in test [1] came out at 0.04; in test [2], 23.8; in test [3] it was 0.8; in test [4], 0.1; in test [5] it was 1.1; in test [6], 4. Also, the Ratio Ki was 0.2 in test [7] and 2.7 in test [8].
